Experiments:
Assay type in all cases: functional
[1] = tested on: Burkholderia pseudomallei; experiment: Antibacterial activity against Burkholderia pseudomallei BPS2020IRBA005 under muller hinton medium by CLSI protocol based microdilution method
[2] = tested on: Burkholderia pseudomallei; experiment: Antibacterial activity against Burkholderia pseudomallei BPS2020IRBA003 under 1 uM FeCl3 medium by CLSI protocol based microdilution method
[3] = tested on: Burkholderia pseudomallei; experiment: Antibacterial activity against Burkholderia pseudomallei K96243 under muller hinton medium by CLSI protocol based microdilution method
[4] = tested on: Burkholderia pseudomallei; experiment: Antibacterial activity against Burkholderia pseudomallei BPS2020IRBA001 under 1 uM FeCl3 medium by CLSI protocol based microdilution method

Measured: MIC

CC(C)(O/N=C(\C(=O)N[C@@H]1C(=O)N2C(C(=O)[O-])=C(C[n+]3ccccc3)CS[C@H]12)c1csc(N)n1)C(=O)O [CEFTAZIDIME]
4 µg/mL: all assays above

— ChEMBL document CHEMBL5335767, “Synthesis and study of new siderophore analog-ciprofloxacin conjugates with antibiotic activities against Pseudomonas aeruginosa and Burkholderia spp” (Eur J Med Chem, 2023)
